Assay results published in US9206463B2, “Method of testing a disinfectant or antibiotic using phenanthridium derivatives” (Montana State University, priority 2006, dated 2015).

System: 8 bacterial species
Test: genomic DNA yield of live and dead cells after PMA or EMA treatment, wider spectrum of bacterial species
Format: cell-based
Settings: all species tested, 50 μM, 5 minutes

Compound: CC[n+]1c(-c2ccccc2)c2cc(N=[N+]=[N-])ccc2c2ccc(N)cc21.[Br-] [EMA]
- DNA yield from live cells after dye treatment: partly reduced the DNA yield from live cells

Compound: CC[N+](C)(CC)CCC[n+]1c(-c2ccccc2)c2cc(N=[N+]=[N-])ccc2c2ccc(N)cc21.[Cl-].[Cl-] [PMA]
- DNA yield from live cells after dye treatment: did not affect the DNA yield from live cells
